# Reference: ChEMBL document CHEMBL3259792 (Eur J Med Chem, 2014)
# Columns and labels:
# [1] = molecular target: Human immunodeficiency virus type 1 reverse transcriptase (Human immunodeficiency virus 1, UniProt Q72547); assay: Inhibition of HIV1 wild-type reverse transcriptase Y181I/Y181C mutant using [3H]dTTP by scintillation counting
# [2] = molecular target: Human immunodeficiency virus type 1 reverse transcriptase (Human immunodeficiency virus 1, UniProt Q72547, L100I); assay: Inhibition of HIV1 wild-type reverse transcriptase L100I mutant using [3H]dTTP by scintillation counting
# [3] = molecular target: Human immunodeficiency virus type 1 reverse transcriptase (Human immunodeficiency virus 1, UniProt Q72547, V106A); assay: Inhibition of HIV1 wild-type reverse transcriptase V106A mutant using [3H]dTTP by scintillation counting
structure (smiles),measurement,setting,value
Cc1cc(C#N)cc(C)c1Oc1nc(Nc2ccc(C#N)cc2)nc(N)c1Br [ETRAVIRINE],IC50,[1],0.164 µM
same,IC50,[2],0.012 µM
same,IC50,[3],0.01 µM
